Each structure is given as a SMILES string.

The series concerns Mycobacterium tuberculosis. Kind of series: Analysis of F-Glc metabolites in Mtb cytosolic extracts. The series is classed as cell-based. Particulars: 100 μM probe.

Regarding `OC[C@H]1O[C@H](O[C@H]2O[C@H](CO)[C@@H](O)[C@H](O)[C@H]2F)[C@H](O)[C@@H](O)[C@@H]1O` [2F-Tre, 2-deoxy-2-fluoro-trehalose], the “cleavage to fluorinated glucose (F-Glc) in cytosolic extracts” value (shortened to “cleavage to fluorinated glucose (F-Glc)”) is reported as “low levels of 2F-Glc”.

Consider `OC[C@H]1O[C@H](O[C@H]2O[C@H](CO)[C@@H](O)[C@H](F)[C@H]2O)[C@H](O)[C@@H](O)[C@@H]1O` [3F-Tre, 3-deoxy-3-fluoro-trehalose], for which the “cleavage to fluorinated glucose (F-Glc)” value is listed as “does not occur”.

Regarding `OC[C@H]1O[C@H](O[C@H]2O[C@H](CF)[C@@H](O)[C@H](O)[C@H]2O)[C@H](O)[C@@H](O)[C@@H]1O` [6F-Tre, 6-deoxy-6-fluoro-trehalose], the “cleavage to fluorinated glucose (F-Glc)” value is on record as “does not occur”.

Values taken from paper PMC11317875 (Chemical Science, 2024).
